Pooled drug test results. Numbers come from NIAID ChemDB, via PubChem.

Common to all: tests in culture; agent: Varicella zoster virus; cell line: HEL; read-out: EC50

ECn: concentration that inhibits the pathogen or its effect by n%. An empty or dashed field is not shown. Rows are shuffled and stem from different studies.

smiles | strain | read by | value
CC1(C)[C@@H](CO)CC[C@@]1(C)Cn1ccc(=O)[nH]c1=O | OKA | cytopathic effect | >50 µg/mL
OC[C@H]1O[C@@H](c2cc(I)c(F)cc2F)C[C@@H]1O | (TK-)07/1 | plaque count | >200 µM
CCc1nc([N+](=O)[O-])c(Sc2ccccc2)n1Cc1ccccc1 | OKA (TK+) | cytopathic effect | 0.25 µg/mL
CCCCOC[C@H]1O[C@@H]2CC(C)(C)C[C@@H]2[C@H]1OCCCC | OKA | plaque count | >80 µg/mL
O=c1nc2oc(-c3ccc(Cl)cc3)cc2cn1[C@H]1C[C@H](O)[C@@H](CO)O1 | YS | cytopathic effect | 0.5 µM
CCCCCCCC/C=C/CCCCCCCC(=O)OCC(CO)OCn1cnc2c(=O)[nH]c(N)nc21 | OKA | cytopathic effect | 1.4 µM
Nc1nc2c(ncn2C[C@@H](CO)CCO)c(=O)[nH]1 | 9/84-C | cytopathic effect / ELISA | >100 µM
C#CCCCCCCc1cc2cn([C@H]3C[C@H](O)[C@@H](CO)O3)c(=O)nc2o1 | OKA | plaque count | 79 µM
Nc1nc2c(ncn2COCCO)c(=O)[nH]1 | YS (TK+) | plaque count | 1.1 µM
CCCCCCCCc1cc2cn([C@H]3C[C@H](O)[C@@H](CO)O3)c(=O)nc2o1 | YS | plaque count | 0.02 µM
Nc1nc2c(ncn2COC(CO)CO)c(=O)[nH]1 | Oka PFA-resistant/A | cytopathic effect | 1.3 µM
Nc1nc2c(ncn2CCOCP(=O)(O)O)c(=O)[nH]1 | YS/R (TK-) | plaque count | 0.001 µg/mL
Nc1ccn(C[C@@H](CO)OCP(=O)(O)O)c(=O)n1 | Oka PMEDAP-resistant | cytopathic effect | 0.26 µM
CCCCCCCCc1cc2cn([C@H]3C[C@H](O)[C@@H](CO)O3)c(=O)nc2s1 | YS | plaque count | 0.001 µM
Nc1nc(N)c2ncn(C[C@H]3CCC[C@H]3CO)c2n1 | OKA (TK+) | plaque count | >50 µg/mL
CCCCCOc1ccc(-c2cc3cn([C@H]4C[C@H](O)[C@@H](CO)O4)c(=O)nc3o2)cc1 | 07/1 (TK-) | plaque count | 3.2 µM
CN1c2ccc(Cl)cc2C(C)(C)C12C=Cc1cc([N+](=O)[O-])ccc1O2 | 07/1 (TK-) | plaque count | 1.7 µM
O=c1[nH]c(=O)n([C@H]2C[C@H](O)[C@@H](CO)O2)cc1/C=C/Br | 9/84-A | cytopathic effect / ELISA | >100 µM
O=c1nc2oc(-c3ccc(Br)cc3)cc2cn1[C@H]1C[C@H](O)[C@@H](CO)O1 | OKA | cytopathic effect | 0.1 µM
O=c1[nH]c(=O)n([C@H]2C[C@H](O)[C@@H](CO)O2)cc1-c1cc(Br)no1 | OKA | plaque count | 0.09 µg/mL
CC/C=C/c1cccc(-c2cc3cn([C@H]4C[C@H](O)[C@@H](CO)O4)c(=O)nc3o2)c1 | - | - | >12 µM
Nc1ncnc2c1ncn2[C@@H]1C[C@H](CO)[C@@H](O)[C@@H]1O | 9/84-C | cytopathic effect / ELISA | 37 µM
OC[C@H]1O[C@H](c2cc(F)c(F)cc2F)C[C@@H]1O | (TK-)/YS/R | plaque count | >200 µM
CC1(C)[C@@H](CO)CC[C@@]1(C)Cn1cc(I)c(=O)[nH]c1=O | YS/R (TK-) | cytopathic effect | >50 µg/mL
Nc1nc2c(ncn2C[C@]2(CO)C[C@H]2CO)c(=O)[nH]1 | 11 isolates | plaque count | 0.097 µg/mL
CCOC(=O)/C=C\C=C\[C@H]1O[C@@H](n2ccc(=O)[nH]c2=O)[C@H](O)[C@@H]1O | 07/1 | - | 10 µM
CCCCCCc1cc2cn([C@H]3C[C@H](O)[C@@H](CO)O3)c(=O)nc2[nH]1 | YS | plaque count | >50 µM
OC[C@H]1O[C@H](c2cc(Br)c(F)cc2F)C[C@@H]1O | (TK-)07/1 | plaque count | >200 µM
CCCCCCCCCCCCc1cc2cn([C@H]3C[C@H](O)[C@@H](CO)O3)c(=O)nc2[nH]1 | YS/R (TK-) | plaque count | 31 µM
CN1c2ccccc2C(C)(C)C12C=Cc1cc([N+](=O)[O-])ccc1O2 | YS (TK+) | plaque count | 5.7 µM
CCOc1ccc(-c2cc3cn([C@H]4C[C@H](O)[C@@H](CO)O4)c(=O)nc3o2)cc1 | YS | plaque count | 0.012 µM
OC[C@H]1O[C@@H](c2ccccc2)[C@H](O)[C@@H]1O | 07/1 | plaque count | >50 µg/mL
CC1(C)[C@@H](CO)CC[C@@]1(C)Cn1cnc2c(=O)[nH]cnc21 | OKA | cytopathic effect | >50 µg/mL
Nc1cc([C@H]2C[C@H](O)[C@@H](CO)O2)c(F)cc1F | (TK-)07/1 | plaque count | >200 µM
Nc1ncnc2c1ccn2[C@@H]1C[C@H](O)[C@@H](O)[C@H]1O | OKA | - | >50 µg/mL
OC[C@H]1O[C@@H](c2ccc(F)cc2F)C[C@@H]1O | (TK-)07/1 | plaque count | >200 µM
CC(C)(C)[Si](OC[C@H]1C[C@@H](Cn2cnc3c(Cl)nc(N)nc32)c2cn(Cc3ccccc3)nc21)(c1ccccc1)c1ccccc1 | TK- | - | 2.1 µM
Nc1nc(N)c(Br)c(OCCOCP(=O)(O)O)n1 | OKA | cytopathic effect | 150 µM
O=c1ccn([C@@H]2C[C@H](CO)C[C@H]2CO)c(=O)[nH]1 | YS/R (TK-) | - | >100 µg/mL
OC[C@H]1O[C@H](c2ccc(F)cc2F)C[C@@H]1O | (TK-)07/1 | plaque count | >200 µM
CCCCCCCCCCc1cc2cn([C@H]3C[C@H](O)[C@@H](CO)O3)c(=O)nc2n1CCC | OKA | plaque count | >5 µM
Cc1c(N)nc(N)nc1OCCOCP(=O)(O)O | OKA | cytopathic effect | 180 µM
CCCCCCCCCCc1cc2cn([C@H]3C[C@H](O)[C@@H](CO)O3)c(=O)nc2n1CC | YS | plaque count | >5 µM
CC(C)Nc1ncnc2c1ncn2C1C[C@H](CO)[C@@H](CO)C1 | OKA | - | >100 µg/mL
Nc1ccn(CCCC(O)CF)c(=O)n1 | 07-01/TK- | cytopathic effect | >50 µg/mL
CC1(C)[C@@H](CO)CC[C@@]1(C)Cn1nnc2c(N)ncnc21 | YS/R (TK-) | cytopathic effect | >50 µg/mL
Cc1cc([C@H]2C[C@H](O)[C@@H](CO)O2)c(F)cc1F | (TK-)07/1 | plaque count | >200 µM
CCCCCCCOCCc1cc2cn([C@H]3C[C@H](O)[C@@H](CO)O3)c(=O)nc2o1 | YS/R (TK-) | plaque count | >50 µM
Cc1cn([C@H]2C/C(=N\O)[C@@H](CO)O2)c(=O)[nH]c1=O | 07/1 (TK-) | cytopathic effect | >200 µg/mL
OC[C@H]1CC(n2cnc3c(NC4CC4)ncnc32)C[C@@H]1CO | 07/1 (TK-) | - | >100 µg/mL
C[C@@H](NC(=O)C1(Cc2ccccc2)CCN1C(=O)OCc1ccccc1)C(=O)OC(C)(C)C | OKA (TK+) | plaque count | >16 µM
O=c1nc2oc(CCCC3OCCCO3)cc2cn1[C@H]1C[C@H](O)[C@@H](CO)O1 | 07/1 (TK-) | plaque count | >200 µM
O=c1[nH]c(=O)n([C@H]2C[C@H](O)[C@@H](CO)O2)cc1/C=C/Br | 07/1 (TK-) | plaque count | >150 µM
OC[C@H]1O[C@@H](c2cc(C(F)(F)F)c(F)cc2F)C[C@@H]1O | (TK-)/YS/R | plaque count | >200 µM
CCCOc1ccc(-c2cc3cn([C@H]4C[C@H](O)[C@@H](CO)O4)c(=O)nc3o2)cc1 | 07/1 (TK-) | plaque count | 9.5 µM
Nc1nc2c(ncn2CCC(CO)CO)c(=O)[nH]1 | Oka BVDU-resistant | cytopathic effect | 23 µM
OC[C@H]1O[C@@H](c2cc(Br)c(F)cc2F)C[C@@H]1O | TK+/YS | plaque count | >200 µM
Nc1cc(OC[C@H](CO)OCP(=O)(O)O)nc(N)n1 | OKA | cytopathic effect | 0.17 µM
CCCOCCOCCCc1cc2cn([C@H]3C[C@H](O)[C@@H](CO)O3)c(=O)nc2o1 | 07/1 (TK-) | plaque count | >200 µM
Nc1ncnc2c1ncn2C(CF)CCCO | YS | cytopathic effect | >50 µg/mL
Nc1ncc2ncn([C@H]3CCC[C@H]3CO)c2n1 | YS/R (TK-) | plaque count | >20 µg/mL
Cc1cccn2c(C3OCCO3)cnc12 | Strain 07/1 | - | >1000 µM
CCCCCCCCCCCCc1cc2cn([C@H]3C[C@H](O)[C@@H](CO)O3)c(=O)nc2s1 | YS | plaque count | 0.2 µM
Nc1nc2c(ncn2C[C@H]2CCC[C@H]2CO)c(=O)[nH]1 | YS (TK+) | plaque count | >50 µg/mL
CCCCCCCCCCCCc1cc2cn([C@H]3C[C@H](O)[C@@H](CO)O3)c(=O)nc2o1 | 07 (TK-) | plaque count | >50 µM
CC(C)CS[C@@H]1C=C[C@H](n2cnc3c(N)ncnc32)C1 | OKA | cytopathic effect | >20 µg/mL
CCCCCCCCc1cc2cn([C@H]3C[C@H](O)[C@@H](CO)O3)c(=O)nc2o1 | OKA | plaque count | 0.0008 µM
CCCCCCc1cc2cn([C@H]3C[C@H](O)[C@@H](CO)O3)c(=O)nc2s1 | OKA | plaque count | 0.08 µM

For reference, 9 entries again:

smiles	strain	read by	value
CCCCCCCC/C=C/CCCCCCCC(=O)OCC(CO)OCn1cnc2c(=O)[nH]c(N)nc21	OKA	cytopathic effect	1.4 µM
O=c1[nH]c(=O)n([C@H]2C[C@H](O)[C@@H](CO)O2)cc1/C=C/Br	07/1 (TK-)	plaque count	>150 µM
CCCCCCCCc1cc2cn([C@H]3C[C@H](O)[C@@H](CO)O3)c(=O)nc2s1	YS	plaque count	0.001 µM
CCOC(=O)/C=C\C=C\[C@H]1O[C@@H](n2ccc(=O)[nH]c2=O)[C@H](O)[C@@H]1O	07/1	-	10 µM
O=c1nc2oc(-c3ccc(Cl)cc3)cc2cn1[C@H]1C[C@H](O)[C@@H](CO)O1	YS	cytopathic effect	0.5 µM
OC[C@H]1O[C@@H](c2ccc(F)cc2F)C[C@@H]1O	(TK-)07/1	plaque count	>200 µM
Nc1nc2c(ncn2COC(CO)CO)c(=O)[nH]1	Oka PFA-resistant/A	cytopathic effect	1.3 µM
C[C@@H](NC(=O)C1(Cc2ccccc2)CCN1C(=O)OCc1ccccc1)C(=O)OC(C)(C)C	OKA (TK+)	plaque count	>16 µM
Nc1cc([C@H]2C[C@H](O)[C@@H](CO)O2)c(F)cc1F	(TK-)07/1	plaque count	>200 µM